Reference: US20180185408A1, “ANTIFUNGAL NYLON-3 POLYMERS AND COMBINATION THERAPY USING THEM TO TREAT FUNGAL INFECTIONS” (priority 2016, published 2018)
“And” between values parts separate entries of the source, which are not always exact repeats. Equal entries are not always repeated. Where two headings read alike, the source gives them in different places.

Tested on: Aspergillus fumigatus
Assay: Checkerboard microdilution synergy (FIC)
Assay type: cell-based
Settings: for MIC: Aspergillus fumigatus, 48 h; for MIC / MIC azole alone / FICazole / MIC azole combination: 35° C.; for FICazole / MIC azole combination: MM:TM with ITRA
[1] = isolate 08-12-12-13 Cyp51 [TR34/L98H], trial 1, batch 7, 48 hours
[2] = isolate 08-19-02-61 Cyp51 [TR34/L98H], trial 1, batch 7, 48 hours
[3] = isolate 08-19-02-61 Cyp51 [TR34/L98H], trial 2, batch 8, 48 hours
[4] = isolate 08-31-08-91 Cyp51 [TR34/L98H], trial 1, batch 7, 48 hours
[5] = isolate 08-31-08-91 Cyp51 [TR34/L98H], trial 2, batch 8, 48 hours
[6] = isolate 08-36-03-25 Cyp51 [TR34/L98H], trial 1, batch 7, 48 hours
[7] = isolate 08-36-03-25 Cyp51 [TR34/L98H], trial 2, batch 8, 48 hours
[8] = isolate 12-7505220 Cyp51 [TR34/L98H], trial 1, batch 7, 48 hours
[9] = isolate D5 Cyp51 [G54E], trial 1, batch 7, 48 hours
[10] = isolate D5 Cyp51 [G54E], trial 2, batch 8, 48 hours
[11] = isolate D9 Cyp51 [M220K], trial 1, batch 7, 48 hours
[12] = isolate D9 Cyp51 [M220K], trial 2, batch 8, 48 hours

SMILES: CCC(C)n1ncn(-c2ccc(N3CCN(c4ccc(OCC5COC(Cn6cncn6)(c6ccc(Cl)cc6Cl)O5)cc4)CC3)cc2)c1=O (centres unmarked) [Itraconazole, itraconazole]
- MIC (D7 Cyp51 [WT], ITRA as single agent, OD600, 48 h, read-out: MIC azole alone): 0.75 µg/mL
- MIC (read-out: MIC azole alone, 08-19-02-61 Cyp51 [TR34/L98H], ITRA as single agent, OD600, 48 h): > 48 µg/mL
- MIC (read-out: MIC azole alone, 08-31-08-91 Cyp51 [TR34/L98H], ITRA as single agent, OD600, 48 h): > 48 µg/mL
- MIC (read-out: MIC azole alone, 08-36-03-25 Cyp51 [TR34/L98H], ITRA as single agent, OD600, 48 h): > 48 µg/mL
- MIC (read-out: MIC azole alone, D5 Cyp51 [G54E], ITRA as single agent, OD600, 48 h): > 48 µg/mL
- MIC (read-out: MIC azole alone, D6 Cyp51 [G54V], ITRA as single agent, OD600, 48 h): > 48 µg/mL
- MIC (read-out: MIC azole alone, D9 Cyp51 [M220K], ITRA as single agent, OD600, 48 h): > 48 µg/mL
- MIC (read-out: MIC azole alone, F11628, ITRA as single agent, OD600, 48 h): 68 µM
- MIC (read-out: MIC azole alone, F16216, ITRA as single agent, OD600, 48 h): > 68 µM
- MIC (read-out: MIC azole alone, MM:TM with ITRA, isolate 08-12-12-13 Cyp51 [TR34/L98H], trial 1, batch 7, 48 hours): > 68 µM
- MIC (read-out: MIC azole alone, MM:TM with ITRA, isolate 08-12-12-13 Cyp51 [TR34/L98H], trial 2, batch 8, 48 hours): 17 µM
- MIC (read-out: MIC azole alone, MM:TM with ITRA, isolate 08-19-02-61 Cyp51 [TR34/L98H], trial 1, batch 7, 48 hours): > 68 µM
- MIC (read-out: MIC azole alone, MM:TM with ITRA, isolate 08-19-02-61 Cyp51 [TR34/L98H], trial 2, batch 8, 48 hours): > 68 µM
- MIC (read-out: MIC azole alone, MM:TM with ITRA, isolate 08-31-08-91 Cyp51 [TR34/L98H], trial 1, batch 7, 48 hours): > 68 µM
- MIC (read-out: MIC azole alone, MM:TM with ITRA, isolate 08-31-08-91 Cyp51 [TR34/L98H], trial 2, batch 8, 48 hours): > 68 µM
- MIC (read-out: MIC azole alone, MM:TM with ITRA, isolate 08-36-03-25 Cyp51 [TR34/L98H], trial 1, batch 7, 48 hours): > 68 µM
- MIC (read-out: MIC azole alone, MM:TM with ITRA, isolate 08-36-03-25 Cyp51 [TR34/L98H], trial 2, batch 8, 48 hours): > 68 µM
- MIC (read-out: MIC azole alone, MM:TM with ITRA, isolate 12-7505220 Cyp51 [TR34/L98H], trial 1, batch 7, 48 hours): > 68 µM
- MIC (read-out: MIC azole alone, MM:TM with ITRA, isolate 12-7505220 Cyp51 [TR34/L98H], trial 2, batch 8, 48 hours): 17 µM
- MIC (read-out: MIC azole alone, MM:TM with ITRA, isolate 12-7505446 Cyp51 [TR34/L98H], trial 1, batch 7, 48 hours): 4.25 µM
- MIC (read-out: MIC azole alone, MM:TM with ITRA, isolate 12-7505446 Cyp51 [TR34/L98H], trial 2, batch 8, 48 hours): 34 µM
- MIC (read-out: MIC azole alone, MM:TM with ITRA, isolate D5 Cyp51 [G54E], trial 1, batch 7, 48 hours): > 68 µM
- MIC (read-out: MIC azole alone, MM:TM with ITRA, isolate D5 Cyp51 [G54E], trial 2, batch 8, 48 hours): > 68 µM
- MIC (read-out: MIC azole alone, MM:TM with ITRA, isolate D6 Cyp51 [G54V], trial 1, batch 7, 48 hours): > 68 µM
- MIC (read-out: MIC azole alone, MM:TM with ITRA, isolate D6 Cyp51 [G54V], trial 2, batch 8, 48 hours): 68 µM
- MIC (read-out: MIC azole alone, MM:TM with ITRA, isolate D9 Cyp51 [M220K], trial 1, batch 7, 48 hours): > 68 µM
- MIC (read-out: MIC azole alone, MM:TM with ITRA, isolate D9 Cyp51 [M220K], trial 2, batch 8, 48 hours): > 68 µM
- MIC azole alone (D6 Cyp51 [G54V], ITRA as single agent, OD600, 48 h): 48 µg/mL and 72 µg/mL
- MIC azole alone (F11628, ITRA as single agent, OD600, 48 h): >68.02 µM and 102.04 µM
- FICazole [1]: 1.000
- MIC azole combination [1]: >68.02 µM
- MIC azole combination (isolate 08-12-12-13 Cyp51 [TR34/L98H], trial 2, batch 8, 48 hours): 4.25 µM
- FICazole [2]: 1.000
- MIC azole combination [2]: >68.02 µM
- FICazole [3]: 0.500
- MIC azole combination [3]: 68.02 µM
- FICazole [4]: 1.000
- MIC azole combination [4]: >68.02 µM
- FICazole [5]: 1.000
- MIC azole combination [5]: >68.02 µM
- FICazole [6]: 1.000
- MIC azole combination [6]: >68.02 µM
- FICazole [7]: 1.000
- MIC azole combination [7]: >68.02 µM
- FICazole [8]: 1.000
- MIC azole combination [8]: >68.02 µM
- MIC azole combination (isolate 12-7505220 Cyp51 [TR34/L98H], trial 2, batch 8, 48 hours): 4.25 µM
- MIC azole combination (isolate 12-7505446 Cyp51 [TR34/L98H], trial 1, batch 7, 48 hours): 0.27 µM
- MIC azole combination (isolate 12-7505446 Cyp51 [TR34/L98H], trial 2, batch 8, 48 hours): 1.06 µM
- FICazole [9]: 1.000
- MIC azole combination [9]: >68.02 µM
- FICazole [10]: 1.000
- MIC azole combination [10]: >68.02 µM
- MIC azole combination (isolate D6 Cyp51 [G54V], trial 1, batch 7, 48 hours): 34.01 µM
- MIC azole combination (isolate D6 Cyp51 [G54V], trial 2, batch 8, 48 hours): 1.06 µM
- FICazole [11]: 1.000
- MIC azole combination [11]: >68.02 µM
- FICazole [12]: 1.000
- MIC azole combination [12]: >68.02 µM

SMILES: CC[C@@H]([C@H](C)O)n1ncn(-c2ccc(N3CCN(c4ccc(OC[C@@H]5CO[C@@](Cn6cncn6)(c6ccc(F)cc6F)C5)cc4)CC3)cc2)c1=O [Posaconazole, posaconazole]
- MIC azole in combination: 0.25 µg/mL
- MIC (read-out: MIC azole alone, 08-19-02-61 Cyp51 [TR34/L98H], POS as single agent, OD600, 48 h): 1.5 µg/mL and 2.14 µM
- MIC (read-out: MIC azole alone, 08-31-08-91 Cyp51 [TR34/L98H], POS as single agent, OD600, 48 h): 1.5 µg/mL and 2.14 µM
- MIC (read-out: MIC azole alone, 12-7505220 Cyp51 [TR34/L98H], POS as single agent, OD600, 48 h): 0.375 µg/mL and 0.54 µM
- MIC (read-out: MIC azole alone, D5 Cyp51 [G54E], POS as single agent, OD600, 48 h): 3 µg/mL and 4.28 µM
- MIC (read-out: MIC azole alone, D6 Cyp51 [G54V], POS as single agent, OD600, 48 h): 0.75 µg/mL and 1.07 µM
